This is an account of results in patent US20110269834A1 (priority 2008, published 2011).

What is called IC50 is the point on the concentration scale where inhibition reaches its midpoint. Read a high IC50 as a need for much substance.

In the assay the target is SARS-CoV PLpro (Severe acute respiratory syndrome coronavirus, UniProt P0C6X7). It counts as biochemical.
As for `COc1cccc(C(=O)N[C@H](C)c2ccc3ccccc3c2)c1` [Compound 5d, 3-Methoxy-N—[(R)-1-(2-naphthyl)ethyl]benzamide], half-maximal inhibition (IC50) was put at 13.5 ± 6.8 µM.

`C[C@@H](NC(=O)c1ccc(N)cc1)c1cccc2ccccc12` [Compound 23, 4-Amino-N—[(R)-1-(1-naphthyl)ethyl]benzamide] returned a half-inhibitory concentration (IC50) of 24.8 ± 1 µM.

Molecule `COc1ccccc1C(=O)N[C@H](C)c1ccc2ccccc2c1` [Compound 5c, 2-Methoxy-N—[(R)-1-(2-naphthyl)ethyl]benzamide] displayed a half-inhibitory concentration (IC50) of 90 ± 26 µM.
